PubChem BioAssay AID504761 | Drosophila RNAi Screening Center | 2011

- Purpose: 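Insect host genes that dengue virus relies on to spread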 (primary screen)
- Cells: D.Mel-2 cells from Drosophila
- Reagent: long dsRNA against Drosophila genes
- Conditions: infection with dengue virus type 2; dose and infection time not stated
- Measurement: 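Per well on two replicate plates, imaging gave the percent of cells positive for viral envelope protein, ranked by infection, and a nuclear count of cells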
- Direction: infection score: higher = more virus-infected cells
- Rule for the call: 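Low infection ranks in the two replicates (chance level up to 0.065) followed by a retest with a 1.5-fold or larger significant decrease, p below 0.05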
- Meaning of the calls: active = confirmed: knock-down lowers infection; inactive = not picked or not confirmed
The deposit covers about 22,000 reagents; below is a random part of those that have a named target and a result. In the full data, 116 (0.52%) are marked active. 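Calls depend on retest data that are not deposited; infection was ranked per plate without normalising between plates; the unit of the infection score is not given.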 A number with no mark means an inactive call. Not all columns of the deposit are shown. The record does not give: the amount of reagent, the time to read-out.

infection score, replicate 1, by target gene and reagent
RasGAP1: DRSC11172 0.81
CG13616: DRSC14619 3.92
mthl6: DRSC10234 4.98
CG30098: DRSC05605 7.51; DRSC25946 1.63
CG8079: DRSC07070 8.05; DRSC07071 7.9
slif: DRSC11635 30.1; DRSC27438 13.6
glob1: DRSC16959 7.61

Not a retest: an excerpt of the list.
infection score, replicate 1, by target gene and reagent
CG8079: DRSC07071 7.9
slif: DRSC11635 30.1

Further entries follow:
infection score, replicate 1, by target gene and reagent
Nrd1: DRSC19830 2.38
vrs: DRSC15832 1.83; DRSC26261 4.73
CG13358: DRSC18534 6.76; DRSC23742 27.5
CG30089: DRSC06126 1.23; DRSC06267 14.3; DRSC06268 1.98
Hasp: DRSC02022 8.68
Atg7: DRSC05741 2.64; DRSC06937 3.23
Hex-t2: DRSC22517 3.72; DRSC28247 17
